From patent US20250276924A1, “CHEMICAL AND BIOLOGICAL DEGRADATION OF ETHER PER- AND POLYFLUOROALKYL SUBSTANCES” (The Regents of the University of California, priority 2024, published 2025)
Some entries repeat one wording, which the source may state once for all of them.

Legend:
[1] = test system: activated sludge community; assay: Aerobic biotransformation and defluorination of ether PFAS in activated sludge batch reactors; details: for defluorination: incubation ≤28 days, result in words
[2] = test system: activated sludge community; assay: Aerobic biological post-treatment of UV/sulfite effluent with activated sludge; details: result in words

SMILES | parent compound removal ([1]; aerobic incubation) [%] | defluorination [1] | biotransformation of chemical treatment products [2] | biotransformation of chemical treatment products ([2]; listed as trifluoropropionate)
CC(OC(F)(F)F)C(=O)O (stereo not shown) [E4, 2-(trifluoromethoxy)propanoic acid] | 39.3 | defluorination was observed | – | –
O=C(O)CCOC(F)(F)F [E5, 3-(trifluoromethoxy)propanoic acid] | – | defluorination was observed | – | –
O=C(O)COCC(F)(F)F [E6, 2-(2,2,2-trifluoroethoxy)acetic acid] | – | not | – | –
O=C(O)CC(F)(F)F [TP127, 3,3,3-trifluoropropanoic acid] | – | – | completely defluorinated | completely destroyed
O=C(O)C(=O)C(F)(F)F [TP140, Trifluoropyruvate] | – | – | nondefluorinating biotransformation | –
